Results of unrelated studies side by side (data: NIAID ChemDB).

Common to all: whole-cell or culture tests; organism: Hepatitis C virus; read-out: EC50

Rows are shuffled and stem from different studies.

compound,strain or isolate,cell line,method,changes,result
Cc1ccc(C2C3=C(CC(C)(C)CC3=O)Nc3c(O)cccc3N2C(=O)C(C)C)c2ccccc12,1b,,luciferase / reporter gene / replicon,,1.12 µM
Cc1ccc(S(=O)(=O)Oc2ccccc2/C=N/NC(=O)Cc2cccc(Cl)c2)cc1,,Huh7,replicon,,<5 µM
NC(=S)Nc1cccc(OCCCCCOc2ccnc3ccccc23)c1,,Ava5-EG(delta4AB)SEAP,reporter gene / fluorescence,,0.001–1 µM
CN(CCS(C)(=O)=O)c1nc(NCc2ccc(F)cc2)nc2ccc(-c3ccc(NC(=O)C(C)(C)N)cc3)nc12,,,replicon,,<0.1 µM
CNC(=O)c1c(-c2ccc(F)cc2)oc2cc(N3CCOCC3)c(OCc3ccc(F)cc3)cc12,,Huh7,replicon,,<1 µM
CC(C)(C)OC(=O)N1CCN(S(=O)(=O)c2cc(-c3ccc4nc(NCc5ccc(S(N)(=O)=O)cc5)nc(NCC(F)(F)F)c4n3)ccc2F)CC1,,,replicon,,<0.1 µM
NC(=S)Nc1cccc(OCCCCc2ccccc2)c1,,Ava5-EG(delta4AB)SEAP,reporter gene / fluorescence,,0.001–1 µM
CS(=O)(=O)NC(=O)c1c(-c2ccc[nH]c2=O)c2c3occc3ccc2n1Cc1cc(F)ccc1F,,,replicon,,<0.5 µM
O=C(N/N=C/c1ccccc1OS(=O)(=O)c1ccc(C(F)(F)F)cc1)c1ccccc1Br,,Huh7,replicon,,<5 µM
CC(C)Nc1nc(NCCN2CCOCC2)nc2ccc(-c3ccc(F)cc3)nc12,,,replicon,,0.25–2 µM
CN(C)S(=O)(=O)NC(=O)c1c(-c2ccc[nH]c2=O)c2c3occc3c(F)cc2n1Cc1cc2ccccc2nc1Cl,,,replicon,,<0.5 µM
CN1CCN(c2cc3c(cc2F)c(=O)c(-c2noc(Cc4ccccc4)n2)cn3Cc2ccc(Cl)cc2)CC1,1b,,replicon,,<2 µM
CNC(=O)c1c(-c2ccc(F)cc2)oc2cc(-c3c(C)n[nH]c3C)c(OC(C)C)cc12,,Huh7,replicon,,<1 µM
CS(=O)(=O)NC(=O)c1c(-c2ccc[nH]c2=O)c2c3ccoc3ccc2n1Cc1ccc(F)cc1F,,,replicon,,>1.5 µM
CCOc1nc(NCc2ccc(F)cc2)nc2ccc(-c3cccc(S(N)(=O)=O)c3)nc12,,,replicon,,<0.1 µM
CNC(=O)c1c(-c2ccc(F)cc2)oc2cc(-c3cc(CO)on3)c(OC(C)C)cc12,,Huh7,replicon,,<1 µM
Cc1cccc(C(=O)Nc2ccc(-c3cc(N(C(=O)C4CCC(C)CC4)C(C)C)c(C(=O)O)s3)cc2)n1,1b,,replicon,,<0.5 µM
CCCCCCOc1ccc(N(C(N)=O)c2nc(-c3ccc(F)cc3)cs2)cc1,,,,,<1 µM
CC(C)N(C(=O)C1CCC(C)(F)CC1)c1cc(-c2ccc(NC(=O)c3cscn3)cc2)sc1C(=O)O,1b,,replicon,,<0.5 µM
O=C(Cc1ccccc1)N/N=C/c1ccccc1OS(=O)(=O)c1ccc(Cl)cc1,,Huh7,replicon,,<5 µM
CNC(=O)c1c(-c2ccc(F)cc2)oc2cc(Cl)c(OC)cc12,,Huh7,replicon,,<1 µM
O=C(NS(=O)(=O)C1CC1)c1c(-c2ccc[nH]c2=O)c2c3occc3ccc2n1Cc1cc2ccccc2nc1Cl,,,replicon,,<0.5 µM
CC1(C)CC(=O)C2=C(C1)Nc1c(O)cccc1N(C(=O)CCC(=O)Nc1ccccc1Cl)C2c1ccc(OCc2ccccc2)cc1Cl,1b,,luciferase / reporter gene / replicon,,2.16 µM
COc1cc2c(=O)c(-c3nc(Cc4ccccc4)no3)cn(CC3CCCCC3)c2cc1OC,1b,,replicon,,>10 µM
COc1c(-c2ccc3cc(NS(C)(=O)=O)ccc3c2)cc(-n2ccc(=O)[nH]c2=O)cc1C(C)(C)C,genotype 1b Con1,Huh7,luciferase,S368T,0.082 µM
CNC(=O)c1c(-c2ccc(F)cc2)oc2cc(N(CC(=O)O)S(C)(=O)=O)c(OC(C)C)cc12,,Huh7,replicon,,<1 µM
CN1CCN(c2cc3c(cc2F)c(=O)c(-c2noc(C(CCC(N)=O)c4ccccc4)n2)cn3Cc2ccc(Cl)cc2)CC1,1b,,replicon,,>10 µM
O=C(Cc1ccccc1)N/N=C/c1ccccc1OS(=O)(=O)c1ccc(Cl)cc1Cl,,Huh7,replicon,,<5 µM
COC(=O)N[C@H](C(=O)N1CCC[C@H]1c1ncc(-c2ccc(-c3ccc(-c4cnc([C@@H]5CCCN5C(=O)[C@@H](NC(=O)OC)C(C)C)[nH]4)cc3)cc2)[nH]1)C(C)C,1b,ET,luciferase,L28V,0.0000026 µM
CC(C)(c1ccccc1)c1nc(-c2cn(Cc3ccc(F)cc3)c3cc(N4CCS(=O)(=O)CC4)c(F)cc3c2=O)no1,1b,,replicon,,<0.5 µM
CC1(C)CC(=O)C2=C(C1)Nc1c(O)cccc1N(C(=O)c1ccco1)[C@H]2c1ccc(OCc2ccccc2)cc1F,1b,,luciferase / reporter gene / replicon,,1.28 µM
CN1CCN(c2cc3c(cc2F)c(=O)c(-c2noc(CC(C)(C)C)n2)cn3Cc2ccc(Cl)cc2)CC1,1b,,replicon,,>10 µM
COc1ccccc1C(=O)N/N=C/c1ccccc1OS(=O)(=O)c1ccc(C(F)(F)F)cc1,,Huh7,replicon,,>50 µM
CC1CCC(C(=O)N(c2cc(-c3ccc(NC(=O)c4cscn4)cc3)sc2C(=O)[O-])C(C)C)CC1.NC(CCCC[NH3+])C(=O)O,1b,,replicon,,<0.5 µM
CCCCCOc1ccc(N(C(N)=O)c2nc(-c3ccc(C(=O)N(C)C)nc3)cs2)cc1C(F)(F)F,,,,,<1 µM
CNC(=O)c1c(-c2ccc(F)cc2)oc2cc(N3CCOCC3)c(OCCOC)cc12,,Huh7,replicon,,<1 µM
CC(C)(c1ccc(F)cc1)c1nc(-c2cn(Cc3ccc(C(F)(F)F)cc3)c3cc(N4CCSCC4)c(F)cc3c2=O)no1,1b,,replicon,,<0.5 µM
CCCCCOc1ccc(N(C(=O)Nc2ccccc2)c2nc(-c3cccnc3)cs2)cc1C(F)(F)F,,,,,<1 µM
CC1CCC(C(=O)N(c2cc(-c3ccc(NC(=O)c4ccc(F)cc4)s3)sc2C(=O)O)C(C)C)CC1,1a,,replicon,,>0.5 µM
C[C@@H](NC(=O)Cc1ccccc1)C(=O)Nc1ccc(C2SC(=Nc3ccc(N4CCOCC4)cc3)N(Cc3ccccn3)C2=O)cc1,,Huh7,replicon,,<0.1 µM
CNC(=O)c1c(-c2ccc(F)cc2)oc2cc(N3CCC(F)(F)CC3)c(OC(C)C)cc12,,Huh7,replicon,,<1 µM
NC(=S)Nc1cccc(NCCCc2ccccc2)c1,,Ava5-EG(delta4AB)SEAP,reporter gene / fluorescence,,0.001–1 µM
NCc1ccc(Cn2c(C(=O)O)c(-c3ccc[nH]c3=O)c3c4occc4c(F)cc32)cc1,,,replicon,,<0.5 µM
O=C(Nc1ccc(C2SC(=Nc3ccc(N4CCOCC4)cc3)N(Cc3ccccn3)C2=O)cc1)[C@H]1CCCN1C(=O)Cc1c(Cl)cccc1Cl,,Huh7,replicon,,<0.1 µM
O=C(Cc1c(F)cccc1F)N/N=C/c1ccccc1OS(=O)(=O)c1ccc(C(F)(F)F)cc1,,Huh7,replicon,,<5 µM
CS(=O)(=O)CCNc1nc(NCc2ccc(S(N)(=O)=O)cc2)nc2ccc(-c3ccc(F)c(Cl)c3)nc12,,,replicon,,<0.1 µM
CS(=O)(=O)NC(=O)c1c(-c2ccc[nH]c2=O)c2c3occc3c(F)cc2n1Cc1csc(C(N)=O)c1,,,replicon,,<0.5 µM
CC(=O)N1c2cccc(O)c2NC2=C(C(=O)CC(C)(C)C2)C1c1ccc(OCc2ccccc2)cc1C,1b,,luciferase / reporter gene / replicon,,2.88 µM
O=C(O)c1c(-c2ccc[nH]c2=O)c2c3occc3c(F)cc2n1Cc1cc2[nH]cnc2cc1Cl,,,replicon,,<0.5 µM
CS(=O)(=O)N(CCO)c1cccc(-c2ccc3nc(NCc4ccc(F)cc4)nc(NCC(F)(F)F)c3n2)c1,,,replicon,,<0.1 µM
COc1cccc(CC(=O)N/N=C/c2cc(C)ccc2OS(=O)(=O)c2ccc(C(F)(F)F)cc2)c1,,Huh7,replicon,,<5 µM
Cc1cnc(CN2C(=O)C(c3ccc(NC(=O)[C@@H](C)NC(=O)OCc4ccccc4)cc3)SC2=Nc2ccc(N3CCOCC3)cc2)cn1,,Huh7,replicon,,<0.1 µM
NC(=O)COc1ccc2c(c1)S(=O)(=O)N=C(c1c(O)c3cc(F)ccc3n(CCC3CC3)c1=O)N2,1a 33779,,replicon,,0.45 µM
COc1nc(N)nc2ccc(-c3ccc(C(=O)NC4CC4)cc3)nc12,,Huh7,replicon,,0.3–1 µM
CC1(C)CC(=O)C2=C(C1)Nc1c(O)cccc1N(C(=O)c1ncc3ccccc3n1)C2c1ccc(OCc2ccccc2)cc1F,1b,,luciferase / reporter gene / replicon,,1 µM
CCOc1nc(NCc2ccc(S(N)(=O)=O)cc2)nc2ccc(-c3ccc(C(=O)NC(C)(C)CN4CCCC4)cc3)nc12,,,replicon,,<0.1 µM
CC1CCC(C(=O)N(c2cc(-c3ccc(NC(=O)c4ccc(CO)o4)cc3)sc2C(=O)O)C(C)C)CC1,1a,,replicon,,<0.5 µM
S=C(NCCc1ccccc1)Nc1cccc(OCCCCCc2ccccc2)c1,,Ava5-EG(delta4AB)SEAP,reporter gene / fluorescence,,0.001–1 µM
C[C@@H](NC(=O)OCc1ccccc1)C(=O)Nc1ccc(C2SC(=Nc3cc(F)cc(F)c3)N(Cc3ccco3)C2=O)cc1,,Huh7,replicon,,0.1–1 µM
NC(=S)Nc1cccc(OCCCCCOc2cccnc2)c1,,Ava5-EG(delta4AB)SEAP,reporter gene / fluorescence,,0.001–1 µM
CCc1ccc(S(=O)(=O)N/N=C/c2ccccc2OS(=O)(=O)c2ccc(C(F)(F)F)cc2)cc1,,Huh7,replicon,,5–50 µM
COCCNc1nc(N)nc2ccc(-c3ccc(C(=O)NC4CC4)cc3)nc12,,Huh7,replicon,,<0.3 µM
O=C(Cc1ccccn1)N/N=C/c1ccccc1OS(=O)(=O)c1ccc(C(F)(F)F)cc1,,Huh7,replicon,,<5 µM
CCCCCOc1ccc(N(C(N)=O)c2nc(-c3cccnc3C)cs2)cc1C(F)(F)F,,,,,<1 µM
COc1ccc(CCN2C(=O)C(c3ccc(NC(=O)[C@@H](C)NC(=O)OCc4ccccc4)cc3)SC2=Nc2cccc(F)c2)cc1OC,,Huh7,replicon,,1–5 µM

Two numbers with a dash give a range or band. ECn is the concentration giving n% inhibition of infection, replication or growth. Blank or dashed fields: not listed here.